A mixed list of measured activities; the numbers were collected in NIAID ChemDB.

All rows: whole-cell or culture tests; organism: Cryptococcus neoformans; read-out: MIC

Rows are shuffled and stem from different studies.

structure,strain,method,value
O=C1/C(=C/c2ccccc2)CCc2ccccc21,25,-,25 µg/mL
Cc1cc(-c2nn(CCO)c(C)c2N=O)no1,-,-,22 µM
CCN1CCC(n2cc(-c3nc(-c4ccc(OC)cc4)n[nH]3)nn2)CC1,-,agar,>200 µg/mL
Fc1ccc(OCCCC(Cn2ccnc2)c2ccc(Cl)cc2Cl)cc1,-,-,<1 µg/mL
C[C@H]1N(C(=O)c2ccc(C(F)(F)F)cc2)C[C@@H](O)O[C@@]1(Cn1cncn1)c1ccc(F)cc1F,89-127,-,2 µg/mL
Cn1ccc(C(Cc2ccc(Cl)cc2)n2ccnc2)c1,-,-,75 µM
CCCn1nc(C)c(N=O)c1-c1cc(C)on1,-,-,0.8 µM
Clc1ccc(OCCC(Cn2ccnc2)c2ccc(Cl)cc2Cl)cc1,-,-,<1 µg/mL
Cn1cccc1C(Cc1ccc([N+](=O)[O-])cc1)n1ccnc1,-,-,300 µM
Cc1noc(=S)n1-c1ccccc1,-,-,0.52 µg/mL
C[C@H]1[C@H](O)[C@@H](C)/C=C/C=C/C=C/C=C/C=C/C=C/C=C/[C@H](O[C@@H]2O[C@H](C)[C@@H](O)[C@H](N)[C@@H]2O)C[C@@H]2O[C@](O)(C[C@@H](O)C[C@@H](O)CC[C@H](O)[C@@H](O)C[C@@H](O)CC(=O)O[C@H]1C)C[C@H](O)[C@H]2C(=O)O,316,-,2 µg/mL
S=c1nc(-c2ccccc2)[nH]s1,-,-,0.06 µg/mL
C[C@H](n1nnc(CCN2CCN(c3ccc(Cl)cc3)CC2)n1)[C@](O)(Cn1cncn1)c1ccc(F)cc1F,LA314,-,8 µg/mL
CC(=O)N1CCC(n2cc(-c3nc(-c4ccc(C)cc4)n[nH]3)nn2)CC1,-,agar,140 µg/mL
OC(Cn1cncn1)(Cn1nnc(CCN2CCN(c3ccc(F)cc3)CC2)n1)c1ccc(F)cc1F,LA314,-,>16 µg/mL
CO/C=C1\[C@@H](Cn2cncn2)[C@H](COc2ccc(OC(F)(F)F)cc2)CC[C@@]1(C)CCOC,CY1057,-,1 µg/mL
O=c1snc(-c2ccccn2)n1-c1ccccc1,-,-,0.05 µg/mL
CCn1cc(C(=O)O)c(=O)c2cc(F)c(N3CCN(CN4C(=O)/C(=N\c5ncc(Cc6cc(OC)c(OC)c(OC)c6)c(N)n5)c5ccccc54)CC3)cc21,-,-,2.44 µg/mL
CCCCn1nc(C)c(N=O)c1-c1cc(C)on1,-,-,2.4 µM
C[C@H]([C@](O)(Cn1cncn1)c1ccc(F)cc1F)S(C)(=O)=O,R718 (AZOLE-R),-,20 µM
C[C@H](n1nnc(CCN2CCN(Cc3ccccc3)CC2)n1)[C@](O)(Cn1cncn1)c1ccc(F)cc1F,LA314,-,>16 µg/mL
O=C1/C(=C/c2ccc(F)cc2)CCc2ccccc21,25,-,25 µg/mL
CC1(C)C(O)CC[C@@]2(C)C1CC[C@]1(C)C2[C@H](O)C=C2C3C[C@@](C)(C(=O)O)CC[C@]3(C)CC[C@]21C,-,absorbance,47 µg/mL
CC(=O)C[C@H]1C[C@H]2[C@H]([C@@H]3c4[nH]c5ccccc5c4CCN13)[C@H](O)C13CC/C=C\CCCCN1CC21CC/C=C\CCCNC13,-,-,>20 µg/mL
Fc1ccc(OCCC(Cn2ccnc2)c2ccc(Cl)cc2Cl)cc1,-,-,<1 µg/mL
CN1CCC(n2cc(-c3nc(-c4ccccc4)n[nH]3)nn2)CC1,-,agar,150 µg/mL
CCn1cc(C(=O)O)c(=O)c2cc(F)c(N3CCN(CN4C(=O)C(=Nc5ccc(S(=O)(=O)Nc6ncnc(OC)c6OC)cc5)c5cc(Cl)ccc54)CC3)cc21,-,-,2.44 µg/mL
Clc1ccc(OCC(Cn2ccnc2)c2ccc(Cl)cc2Cl)c(Cl)c1,-,-,<1 µg/mL
O=C1/C(=C/c2ccc(Cl)cc2)CCc2ccccc21,Farwania,-,6 µg/mL
Clc1ccc(CC(c2ccc(Cl)s2)n2ccnc2)c(Cl)c1,-,-,1.2 µM
C[C@H](n1nnnc1CCN1CCN(Cc2ccccc2)CC1)[C@](O)(Cn1cncn1)c1ccc(F)cc1F,LA314,-,>16 µg/mL
CCn1cc(C(=O)O)c(=O)c2cc(F)c(N3CCN(CN4C(=O)C(=Nc5ccc(S(=O)(=O)Nc6ncccn6)cc5)c5ccccc54)CC3)cc21,-,-,2.44 µg/mL
Cc1cc(-c2n[nH]c(C)c2N=O)no1,-,-,30 µM
Clc1ccc(C(COc2ccccc2Cl)Cn2ccnc2)cc1,-,-,<1 µg/mL
O=[N+]([O-])c1ccc(CC(c2ccc(Cl)s2)n2ccnc2)cc1,-,-,4.7 µM
COc1ccc(OCCCC(Cn2ccnc2)c2ccc(Cl)cc2Cl)cc1,-,-,<1 µg/mL
Nc1ccc(CC(c2cccs2)n2ccnc2)cc1,-,-,300 µM
CCn1cc(C(=O)O)c(=O)c2cc(F)c(N3CCNCC3)cc21,-,-,4.88 µg/mL
COc1ccc(OCCC(Cn2ccnc2)c2ccc(Cl)cc2Cl)cc1,-,-,<1 µg/mL
CCn1c(-c2ccncc2)noc1=S,-,-,0.95 µg/mL
CCC(=O)N1CCC(n2cc(-c3nc(-c4ccc(C)cc4)n[nH]3)nn2)CC1,-,agar,>200 µg/mL
C[C@H]1[C@H](O)[C@@H](C)/C=C/C=C/C=C/C=C/C=C/C=C/C=C/[C@H](O[C@@H]2O[C@H](C)[C@@H](O)[C@H](N)[C@@H]2O)C[C@@H]2O[C@](O)(C[C@@H](O)C[C@@H](O)CC[C@H](O)[C@@H](O)C[C@@H](O)CC(=O)O[C@H]1C)C[C@H](O)[C@H]2C(=O)O,-,absorbance,0.16 µg/mL
CCn1cc(C(=O)O)c(=O)c2cc(F)c(N3CCN(CN4C(=O)/C(=N\c5ncc(Cc6cc(OC)c(OC)c(OC)c6)c(N)n5)c5cc(Cl)ccc54)CC3)cc21,-,-,0.6 µg/mL
O=C1/C(=C/c2ccc3c(c2)OCO3)CCc2ccccc21,Farwania,-,100 µg/mL
CCCCCCCCCCCCCCCC(=O)NC1CC(O)C(O)NC(=O)C2C(O)C(CO)CN2C(=O)C(CCC(N)=O)NC(=O)C(C(O)C(O)c2ccc(O)cc2)NC(=O)C2CC(O)CN2C(=O)C(C(C)O)NC1=O,-,-,>20 µg/mL
CCn1c(-c2ccccn2)noc1=S,-,-,0.48 µg/mL

Repeating the first 4 entries:

structure,strain,method,value
O=C1/C(=C/c2ccccc2)CCc2ccccc21,25,-,25 µg/mL
Cc1cc(-c2nn(CCO)c(C)c2N=O)no1,-,-,22 µM
CCN1CCC(n2cc(-c3nc(-c4ccc(OC)cc4)n[nH]3)nn2)CC1,-,agar,>200 µg/mL
Fc1ccc(OCCCC(Cn2ccnc2)c2ccc(Cl)cc2Cl)cc1,-,-,<1 µg/mL

Blank or dashed fields: not listed here.